From PubChem BioAssay AID540333 (Southern Research Specialized Biocontainment Screening …, 2011)
The entries are a selection whose mix differs from that of the whole data set. Calls of active or inactive are those of the source. Cut-off read from the data, not from the text of the source: active = CPE inhibition mostly above about 9.1% (no sharp cut-off); inactive = mostly below about 7.2%.

test: Dengue virus cytopathic effect inhibitors, cell-based, CPE readout, HTS (AID 540333); conditions: Dengue virus CPE inhibition in host cells, at 20 µM; hits give high values

Row | Structure (SMILES) | CPE inhibition
1 | Cc1cccc(C)c1OP(C)(=O)Nc1ccc(SC(F)(F)F)cc1 (stereo not drawn) | inactive: 3.17%
2 | CC1=NCCc2c1[nH]c1ccccc21.O=[N+]([O-])c1cc([N+](=O)[O-])c(O)c([N+](=O)[O-])c1 | inactive
3 | CC(C)c1ccc(OP(C)(=O)Nc2ccc(SC(F)(F)F)cc2)cc1 (stereo not drawn) | inactive: 5.01%
